Laboratory results published in patent US20060110801A1 (WISCONSIN ALUMNI RESEARCH FOUNDATION, published 2006).

Target: T1, T7-ATR41-227 (fusion protein having a hexahistidine tag, a T7 tag, and amino acids 41 to 227 of ATR) (human, UniProt Q9H6X2 41-227)
T1 construct: also called the I domain; extracellular fragment of ATR
T1 sequence: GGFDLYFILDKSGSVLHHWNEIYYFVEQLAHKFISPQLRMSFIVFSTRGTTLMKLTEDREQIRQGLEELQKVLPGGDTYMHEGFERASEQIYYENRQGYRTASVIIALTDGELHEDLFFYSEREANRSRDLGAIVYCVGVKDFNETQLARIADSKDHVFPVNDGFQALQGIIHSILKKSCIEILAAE
Test: pull-down on glutathione sepharose, Western blot with anti-T7-HRP

B1: GST-D4 (fusion protein containing GST and the PA receptor-binding domain (D4)) (other)
chain: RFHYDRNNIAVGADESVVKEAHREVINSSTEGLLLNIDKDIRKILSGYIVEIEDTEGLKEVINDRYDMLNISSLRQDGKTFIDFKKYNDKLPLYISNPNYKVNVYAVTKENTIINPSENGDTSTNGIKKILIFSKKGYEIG
binding result: binds
